A word on the IC50: it is the concentration needed to halve the response being measured.

Protein sequences, listed by entry. Tags and fused reporters are not part of them. Lines headed by an entry give the natural chain unless they say otherwise; changes in a name come on top.
UniProt P18031: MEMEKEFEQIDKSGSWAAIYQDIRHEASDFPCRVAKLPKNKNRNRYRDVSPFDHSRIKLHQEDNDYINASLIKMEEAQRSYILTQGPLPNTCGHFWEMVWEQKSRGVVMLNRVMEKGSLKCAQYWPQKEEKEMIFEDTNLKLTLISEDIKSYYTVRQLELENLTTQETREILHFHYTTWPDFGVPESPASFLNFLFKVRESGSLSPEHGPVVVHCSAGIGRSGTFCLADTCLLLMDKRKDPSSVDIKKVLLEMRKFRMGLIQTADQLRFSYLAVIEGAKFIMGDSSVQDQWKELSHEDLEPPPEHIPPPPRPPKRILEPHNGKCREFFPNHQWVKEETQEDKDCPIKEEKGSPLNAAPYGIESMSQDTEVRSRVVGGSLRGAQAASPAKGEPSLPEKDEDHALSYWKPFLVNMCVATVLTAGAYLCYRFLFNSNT

For this assay, the target named is Human recombinant PTP1B (Homo sapiens, UniProt P18031). In words: Inhibition of tri-phosphorylated insulin receptor dodecaphosphopeptide dephosphorylation by hPTP1B (malachite green-ammonium molybdate phosphate detection). The format is biochemical. Conditions: substrate phosphotyrosyl dodecapeptide TRDIYETDYYRK (insulin receptor 1142-1153), 37°C, 30 min, pH 7.4.

Regarding `O=[As]c1ccccc1` (stereo not shown), the half-maximal inhibitory concentration (IC50) is 39.7 µM.
